Compound potency records, mixed from different reports. Data source: NIAID ChemDB in PubChem.

Common to all: host cell toxicity; measure: CC50

Neighbouring rows are from separate reports. CCn: concentration that lowers growth or viability of the cells by n%. Blank or dashed fields: not listed here.

| structure | cell line | read by | value |
|---|---|---|---|
| COC(=O)[C@H](C)NP(=O)(OC[C@H]1C/C1=C\n1cnc2c(=O)[nH]c(N)nc21)Oc1ccccc1 | H-1 | - | >50 µM |
| [C-]#[N+][C@@]1(C)CC[C@H]2[C@H]3[C@@H](C(=C)CC[C@@H]31)[C@H](CC(C)(C)N=C=S)C[C@@H]2C | KB | - | >20 µg/mL |
| CC(C)=CCC/C(C)=C/Cc1cc([C@H]2Oc3c(CC=C(C)C)c(O)cc(O)c3C(=O)[C@@H]2O)ccc1O | MT-4 | - | >10 µg/mL |
| COC(=O)C(C)NP(=O)(OC[C@H]1C/C1=C/n1cnc2c(N)nc(N)nc21)Oc1ccccc1 | DAUDI | - | 0.85 µM |
| COC(=O)[C@H](C)NP(=O)(OC[C@H]1C/C1=C/n1cnc2c(=O)[nH]c(N)nc21)Oc1ccccc1 | H-1 | - | >50 µM |
| CCCCSc1n[nH]c(-c2ccc(O)cc2)n1 | THP-1 | MTT | >100 µg/mL |
| O=c1[nH]c(=O)n([C@H]2C[C@H](O)[C@@H](CO)O2)c[c]1[Hg+].O[C@H](C[S-])[C@H](O)CS | HELA TK- | trypan blue | 48.8 µg/mL |
| Nc1nc(Cl)c2ncn(/C=C3/C[C@H]3CO)c2n1 | DAUDI | - | >199 µM |
| O=C(Nc1ccsc1)NC1N=C(c2ccccc2)c2ccccc2NC1=O | HEP-2 | - | 4.8 µM |
| Nc1ccc(-c2nc(=S)[nH][nH]2)cc1 | Panc-1 | MTT | >100 µg/mL |
| COc1ccc(Oc2coc3cc(O)cc(O)c3c2=O)c(OC)c1 | MT-4 | - | 47 µg/mL |
| CN[C@@H]1[C@H](O)[C@H](NC)[C@H]2O[C@@]3(O)C(=O)C[C@@H](C)O[C@H]3O[C@@H]2[C@H]1O | Vero and J774 | - | >200 µg/mL |
| Nc1nc2c(ncn2[C@H]2CO[C@@H](CO)O2)c(=O)[nH]1 | CBMC | - | >100 µM |
| COc1ccc(-c2oc3cc(O)cc(O)c3c(=O)c2OC)cc1O | MT-4 | - | 0.06 µg/mL |
| Clc1ccc(-c2nc(SCC3CC3)n[nH]2)cc1 | THP-1 | MTT | >100 µg/mL |
| COC(=O)[C@H](C)NP(=O)(OCC1C/C1=C/n1cnc2c(N)ncnc21)Oc1ccccc1 | 2.2.15 | - | 0.3 µM |
| O=C(NC1N=C(c2ccccc2)c2ccccc2NC1=O)OCc1ccccc1 | HEP-2 | - | 5 µM |
| Nc1nc2c(ncn2C[C@H]2CC[C@@H](CO)C2)c(=O)[nH]1 | E6SM | - | >400 µg/mL |
| [C-]#[N+][C@@]1(C)C2CC[C@H]3[C@H]4[C@H](CC[C@]3(C)[N+]#[C-])[C@@H](C)C[C@@H](CC1(C)C)[C@H]24 | KB | - | 4.7 µg/mL |
| O=C(Cn1c(-c2ccc3ccccc3c2)cc(-c2ccccc2)c1-c1ccco1)Nc1nc2ccccc2s1 | HEK293T | MTT | 38.32 µM |
| O=c1[nH]c(=O)n([C@H]2C[C@H](O)[C@@H](CO)O2)c[c]1[Hg+].OCC(O)C[S-] | HELA TK- | trypan blue | 15 µg/mL |
| CCN1c2ncc(CCc3ccccc3)cc2C(=O)N(C)c2ccc(Cl)nc21 | C8166-45 | MTT | >60 µM |
| CC(=O)N(O)CCCCCNC(=O)CCC(=O)N(O)CCCCCNC(=O)CCC(=O)N(O)CCCCCN | PBLC | - | <100 µM |
| Nc1ccn([C@H]2CC[C@@H](CO)O2)c(=O)n1 | JM | - | 0.5 µM |
| CCCCSc1n[nH]c(-c2ccccc2C)n1 | Panc-1 | MTT | >100 µg/mL |
| COc1ccc(C(=O)N2CCN(c3ccc4c(c3)CCC(=O)N4)CC2)cc1OC | Macrophage | - | >100 µg/mL |
| O=[N+]([O-])c1ccc(-c2nc(SCC3CC3)n[nH]2)cc1 | THP-1 | MTT | >100 µg/mL |
| O=C(O)C(=O)CC(=O)c1cc(OCc2ccccc2)cc(OCc2ccccc2)c1 | CEMfx | MTT | >100 µM |
| CCN1c2ncc(COc3ccccc3)cc2C(=O)N(C)c2ccc(Cl)nc21 | C8166-45 | MTT | >60 µM |
| COC(=O)[C@H](C)NP(=O)(OC[C@H]1C/C1=C/n1cnc2c(OC)nc(N)nc21)Oc1ccccc1 | H-1 | - | 4.6 µM |
| Nc1ccn([C@@H]2CS[C@H](CO)O2)c(=O)n1 | DU145 | - | >500 µM |
| Cc1nnc(C(C)C)n1C1C[C@H]2CC[C@@H](C1)N2CC[C@H](NC(=O)C1CCC(F)(F)CC1)c1ccccc1 | PM1 | MTS | >10 µM |
| CCOCn1c(Cc2ccccc2)c(C(C)C)c(=O)[nH]c1=O | MM | - | >100 µM |
| Nc1ccn([C@H]2CO[C@@H](CO)O2)c(=O)n1 | PBM | - | >200 µM |
| O=C(N[C@H]1N=C(c2ccccc2)c2ccccc2NC1=O)c1cc2ccccc2o1 | HEP-2 | - | 2.6 µM |
| COC(=O)[C@@H](CCN1[C@@H]2CC[C@@H]1CC(n1nnc3cccnc31)C2)c1ccccc1 | CHO | - | >10 µM |
| S=c1[nH]nc(-c2ccc(Cl)cc2)s1 | Panc-1 | MTT | >100 µg/mL |
| CCOc1ccc(C(C)=O)cc1C(=O)N[C@H]1N=C(c2ccccc2)c2ccccc2NC1=O | HEP-2 | - | 1.2 µM |
| NC(=O)c1csc([C@@H]2O[C@H](CO)[C@@H](O)[C@H]2O)n1 | RAJI | - | 8.2 µM |
| COc1ccc(S(=O)(=O)N(CC(C)C)C[C@@H](O)[C@H](Cc2ccccc2)NC(=O)c2cc(O)cc(O)c2)cc1 | HEK293T | absorbance | >100 µM |
| Nc1nc(N)c2nnn(C[C@H]3CC[C@@H](CO)C3)c2n1 | E6SM | - | >400 µg/mL |
| C=C(C)[C@@H]1CC[C@]2(C)CC[C@]3(C)[C@H](CC[C@@H]4[C@@]5(C)CC[C@H](OC(C)=O)C(C)(C)[C@@H]5CC[C@]43C)[C@@H]12 | KB | - | >20 µg/mL |
| CCSc1nnc(-c2ccc(F)cc2)o1 | THP-1 | MTT | >100 µg/mL |
| CC(=O)OC1C(COC(=O)/C=C/c2ccc(O)cc2)OC(COC(=O)/C=C/c2ccc(O)cc2)(OC2OC(COC(=O)/C=C/c3ccc(O)cc3)[C@@H](OC(C)=O)[C@H](O)[C@H]2O)C1OC(=O)/C=C/c1ccc(O)cc1 | C-33A | MTT | 36.84 µg/mL |
| C[C@]1(/C=C/Cl)C[C@](Cl)(CBr)[C@@H](Br)C[C@H]1Cl | KB | - | 13.3 µg/mL |
| Nc1nc(N)c2ncn([C@H]3CO[C@@H](CO)O3)c2n1 | HT-1080 | - | >500 µM |
| O=c1[nH]c(=O)n([C@H]2C[C@H](O)[C@@H](CO)O2)c[c]1[Hg+] | HELA TK- | trypan blue | 5.7 µg/mL |
| CC(C)=CCc1c(O)cc(-c2cc3ccc(O)cc3o2)cc1O | MT-4 | - | 19 µg/mL |
| CS(=O)CCCCN=C=S | CEM-GFP | MTT | 10.23 µM |
| COc1cc(O)c2c(=O)oc3cc(O)cc(C)c3c2c1 | HEK293T | XTT / absorbance | 392.3 µM |
| OCCN1CCN(CCCN2c3ccccc3Sc3ccc(Cl)cc32)CC1 | Huh 7.5.1 clone 2 | MTT | 10.5 µM |
| CCC[C@@H](O)C1=C(Br)/C(=C/Br)OC1=O | KB | - | 0.4 µg/mL |
| NC(=O)c1c[se]c(C2OC(CO)C(O)C2O)c1 | RAJI | - | 0.9 µM |
| Nc1nc(N)c2ncn([C@H]3CC[C@@H](CO)O3)c2n1 | BFU-E | - | 50.5 µM |
| S=c1nc(-c2ccco2)[nH][nH]1 | Panc-1 | MTT | >100 µg/mL |
| Cc1cn([C@H]2C[C@H](N=[N+]=[N-])[C@@H](CO)O2)c(=O)[nH]c1=O | DU145 | - | >10 µM |
| Nc1nc(N)c2ncn(C[C@H]3CC[C@@H](CO)C3)c2n1 | E6SM | - | >400 µg/mL |

Repeating the final 3 entries:

structure | cell line | read by | value
S=c1nc(-c2ccco2)[nH][nH]1 | Panc-1 | MTT | >100 µg/mL
Cc1cn([C@H]2C[C@H](N=[N+]=[N-])[C@@H](CO)O2)c(=O)[nH]c1=O | DU145 | - | >10 µM
Nc1nc(N)c2ncn(C[C@H]3CC[C@@H](CO)C3)c2n1 | E6SM | - | >400 µg/mL